{"source": "patent US20140162974A1", "about": "“METHODS FOR MODULATION OF PHOSPHORUS AND FGF23” (Luitpold Pharmaceuticals, Inc., priority 2012, published 2014)", "test": "VIT-30 safety: composite cardiovascular endpoint and adverse events", "format": "in vivo", "experimental": "The following example describes a randomized, active controlled trial of subjects with iron deficiency anemia and non-dialysis dependent chronic kidney disease and elevated cardiovascular risk who received either FCM (750 mg on Day 0 and Day 7 for a total of 1500 mg) or iron sucrose (Venofer; 200 mg on 5 visits between Days 0 and 14 for a total of 1000 mg). Study visits were on Days 0, 3, 7, 10, 14, 28, 56, and 120. A phone assessment occurred on Day 90. The primary objective was to estimate the cardiovascular safety and efficacy FCM compared to Venofer in subjects who had iron deficiency anemia (IDA) and impaired renal function.\nVIT-30 was a Phase 3, multicenter, randomized, active-controlled, open-label study that compared the safety and efficacy of IV FCM vs. IV Venofer in subjects with IDA and impaired renal function. […]\nSafety assessments were summarized for the Safety Population unless stated otherwise. Subjects were analyzed under the treatment actually received.\nThe difference between FCM and Venofer in the proportion of subjects experiencing the primary composite endpoint was assessed with a 95% 2-sided CI constructed with the normal approximation to the binomial with continuity correction. […] The precision of the estimated treatment group difference was measured by the width of the 95% CI. […]", "data": [{"substance": "polynuclear iron (III)-hydroxide 4(R)-(poly-(1→4)-O-α-glucopyranosyl)-oxy-2(R),3(S),5(R),6-tetrahydroxy-hexanoate [FCM]", "values": [{"measurement": "subjects with at least 1 event of the composite safety endpoint in addition to a protocol-defined hypertensive event", "setting": "10 subjects", "result": 10.5, "unit": "%"}, {"measurement": "subjects with primary composite safety endpoint events excluding protocol-defined hypertensive or hypotensive events", "setting": "in vivo", "result": 5.49, "unit": "%"}]}]}
